Laboratory results taken from patent publication US10208000B2, “Eis inhibitors” (priority 2015, dated 2019).

Key:
H37Rv Mtb = assay: Mycobacterial MIC determination by alamar blue assay, KAN with sulfonyl isothiazoles; assay type: cell-based, Mycobacterium tuberculosis; conditions: KAN MIC in presence of compound at concentration tested (100x IC50 or 20 μM); KAN line = absence of compound
K204 Mtb = conditions: for K204 MICKAN: KAN MIC in presence of compound at concentration tested (100x IC50 or 20 μM), KAN line = absence of compound

Row | SMILES | H37Rv MICKAN (H37Rv Mtb) | K204 MICKAN (K204 Mtb) | overcoming resistance to KAN in Mtb K204 (in words) (K204 Mtb)
1 | CCCN1CCN(C2=NS(=O)(=O)C(c3ccc(C)c(C)c3)=C2C)CC1 | 0.625 µg/mL | 5 µg/mL | –
2 | CC1=C(c2ccc(C)c(C)c2)S(=O)(=O)N=C1NCC(=O)NCc1ccc(C)o1 | 1.25 µg/mL | 10 µg/mL | did not overcome resistance to KAN
